Experimental findings from patent publication US12629392B2, “Method of treating covid-19 infection using superparamagnetic iron oxide nanoparticle” (Imam Abdulrahman Bin Faisal University, priority 2023, dated 2026) are described below.

The test system of the data set is A549 cells. Kind of data set: Cell viability (MTT) assay, A549 cells. Conditions: 48 hours, FIG. 5A.

`NC(=O)c1ncn([C@@H]2O[C@H](CO)[C@@H](O)[C@H]2O)n1` [Rib, 1-β-D-Ribofuranosyl-1,2,4-triazole-3-carboxamide]: the “cell viability / cytotoxic potential (MTT), result in words” value is listed as “significant reduction in cell viability”.
